Drawing on patent US20250042935 (published 2025), this text covers step yield for 6 substances.

Several values for one entry are separate records, joined by “and”; a condition that tells them apart may be missing. Equal values may be shown once.

The series is described as follows: general procedure: Fmoc solid-phase peptide synthesis; pre-loaded Fmoc-amino acid Wang resins (~0.34 mmol/g loading); DIC, oxyma, 2,4,6-collidine. To be noted: late stage modification step.

Pyr-HWSYGLRPG showed a step yield of 78%.

For “HGEGTFTSDLSKQMEEEAVRLFIEWLKNGGPSSRHYLNLVTRQRY”, the step yield (run 1) is 56% and 49%.

For the substance VPLPAGGGTVLTKMYPRGNHWAVGHLM, the step yield (run 1) is 48% and 68%. On to HAEGTFTSDVSSYLEGQAAKEFIAWLVKGR, for which, for the setting “run 1”, the step yield is 53% and 70%. As for SYSMEHFRWGKPVGKKRRPVKVYP, the step yield was 63%. Same read-out and setting: as for “QDEGSEATGFLPAAGEKTSGPLGNLAEELNGYSRKKGGFSFRF”, the figure is 73%.
